A mixed list of measured activities; the numbers were collected in NIAID ChemDB.

Common to all: cytotoxicity tests; cell line: H9; endpoint: CC50

Lines come from different laboratories, so protocols vary. An empty or dashed field is not shown. CCn: concentration that lowers growth or viability of the cells by n%.

structure | method | value
CN[C@H]1C[C@@H](N)[C@H](O)[C@@H](O[C@@H]2O[C@H](CO)[C@H](O)[C@@H]3OC4(O[C@H]23)O[C@H]([C@@H](N)CO)[C@H](O)[C@@H](O)[C@H]4O)[C@@H]1O | MTT | >200 µM
Cc1coc2c3c(ccc2c1=O)OC(C)(C)[C@H](OC(=O)C12CCC(C)(C(=O)O1)C2(C)C)[C@@H]3OC(=O)C12CCC(C)(C(=O)O1)C2(C)C | - | 14.7 µM
CC(=O)OC[C@]12[C@H](OC(C)=O)[C@H](OC(C)=O)[C@@H]3[C@@H](OC(C)=O)[C@@]14O[C@@]3(C)COC(=O)c1cnccc1[C@@H](C)[C@@](C)(O)C(=O)O[C@@H]([C@H](OC(=O)c1ccoc1)[C@@H]2OC(C)=O)C4(C)O | - | >100 µg/mL
Nc1ccn([C@@H]2O[C@H](CO)C[C@@H]2F)c(=O)n1 | - | >100 µM
CC(=O)OC1C=C2CC[C@H]3[C@@H]4CC[C@H]([C@H](C)C(=O)OC[C@H]5O[C@@H](n6cc(C)c(=O)[nH]c6=O)C[C@@H]5N=[N+]=[N-])[C@@]4(C)CC[C@@H]3[C@@]2(C)CC1 | trypan blue | <5 µg/mL
CO[C@]1(C(=O)O)C[C@H](OS(=O)(=O)O)[C@@H](NC(C)=O)[C@H]([C@H](OS(=O)(=O)O)[C@@H](COS(=O)(=O)O)OS(=O)(=O)O)O1 | MTT | >200 µM
COc1cc2c[n+](C)c3c4cc5c(cc4c(CC(C)=O)cc3c2cc1OC)OCO5 | cell count | 0.209 µg/mL
COC1CCC(OC2CC(C)(C3CCC(C4OC(C)(O)C(C)CC4C)O3)OC2C2(C)CC(C)C3(OC(CC4OC(O)(C(C)C(=O)O)C(C)C(OC)C4OC)CC(OC)C3C)O2)OC1C | - | 49.1 µg/mL
CC(C)C(=O)O[C@@H]1[C@H](OC(=O)C23CCC(C)(C(=O)O2)C3(C)C)c2c(ccc3c(=O)cc(-c4ccccc4)oc23)OC1(C)C | - | >42.5 µM
CC(C)=CCC/C(C)=C/C[N+]1(C/C=C(\C)CCC=C(C)C)CCc2cc(O)c(O)cc2[C@H]1Cc1ccc(O)c(O)c1 | - | 18.02 µg/mL
COc1cc2c(c(OC)c1O)-c1ccc(OC)c(=O)cc1[C@@H](NC(C)=O)CC2 | - | 0.26 µM
O=C(O)P(=O)(O)O | - | >1000 µM
COc1c2ccoc2cc2oc(=O)ccc12 | - | 24.8 µg/mL
CCCCCCCCCCCCCCCCCCCCCCOC[C@H](CO[C@]1(C(=O)O)C[C@H](OS(=O)(=O)O)[C@@H](NC(C)=O)[C@H]([C@H](OS(=O)(=O)O)[C@@H](COS(=O)(=O)O)OS(=O)(=O)O)O1)OCCCCCCCCCCCCCCCCCCCCCC | MTT | >200 µM
Cc1cn([C@H]2C[C@H](N=[N+]=[N-])[C@@H](CO)O2)c(=O)[nH]c1=O | turbidity / cell count | 1870 µM
CCCCCCCCCCCCCCCCCCCCCCOCC(C)(COCCCCCCCCCCCCCCCCCCCCCC)CO[C@]1(C(=O)O)C[C@H](OS(=O)(=O)O)[C@@H](NC(C)=O)[C@H]([C@H](OS(=O)(=O)O)[C@@H](COS(=O)(=O)O)OS(=O)(=O)O)O1 | - | >200 µM
COc1cc2c(cc1O)CC[N+](C)(C)[C@@H]2Cc1ccc(O)cc1 | cell count | >100 µg/mL
CC(C)[C@H](NC(=O)Cn1ccnc1)C(=O)N[C@@H](Cc1ccccc1)C(O)[C@H](Cc1ccccc1)NC(=O)[C@@H](NC(=O)OCc1ccccc1)C(C)C | trypan blue | >100 µM
CCc1cc(NCc2nc3c(Cl)ccc(Cl)c3o2)c(=O)[nH]c1C | - | >60 µM
O=C(O)[C@H]1O[C@@H](Oc2c(-c3ccc(O)c(O)c3)oc3cc(O)cc(O)c3c2=O)[C@H](O)[C@@H](O)[C@@H]1O | cell count | >100 µg/mL
COc1cc2c(c(OC)c1OC)-c1ccc(=O)c(OC)cc1[C@@H](N)CC2 | - | 2.8 µM
CC(C)[C@H](NC(=O)OCc1ccccc1)C(=O)N[C@@H](Cc1ccccc1)[C@H](O)[C@H](Cc1ccccc1)NC(=O)[C@@H](NC(=O)OCc1ccccn1)C(C)C | trypan blue | 25 µM
CC(C)=CCC/C(C)=C/C[N+]1(C/C=C(\C)CCC=C(C)C)CCc2cc(O)c(O)cc2[C@H]1C | - | 10.68 µg/mL
Cc1cn([C@H]2C[C@H](N=[N+]=[N-])[C@@H](CO)O2)c(=O)[nH]c1=O | cell count | 500 µg/mL
Nc1nc2c(ncn2[C@@H]2O[C@H](CO)[C@@H](O)[C@H]2O)c(=O)o1 | MTT | >100 µg/mL
Nc1ncnc2c1ncn2[C@@H]1C[C@H](CO)[C@@H](F)C1 | - | 50 µg/mL
O=c1ccn([C@H]2C[C@H](F)[C@@H](CO)O2)c(=O)[nH]1 | - | >2500 µM
COc1cc2ccc(=O)oc2c(CC=C(C)C)c1OC | cell count | 21.1 µg/mL
CC1(C)Oc2ccc3c(=O)ccoc3c2[C@@H](OC(=O)C23CCC(C)(C(=O)O2)C3(C)C)[C@H]1OC(=O)C12CCC(C)(C(=O)O1)C2(C)C | - | 14.2 µM
COc1cc2c(c(OC)c1O)-c1ccc(O)c(=O)cc1[C@@H](NC(C)=O)CC2 | - | 0.27 µM
Cc1cn([C@H]2C[C@H](N=[N+]=[N-])[C@@H](CO)O2)c(=O)[nH]c1=O | - | >100 µM
COc1ccc2c(c1OC)C(CC(C)=O)N(C)c1c-2ccc2cc3c(cc12)OCO3 | cell count | 2.32 µg/mL
CC(=O)OC[C@]12[C@H](OC(C)=O)[C@H](OC(C)=O)[C@@H]3[C@@H](OC(C)=O)[C@@]14O[C@@]3(C)COC(=O)c1cccnc1CCC(C)C(=O)O[C@@H]([C@H](OC(=O)c1ccoc1)[C@@H]2OC(C)=O)C4(C)O | - | >100 µg/mL
Cc1cn([C@H]2C[C@H](N=[N+]=[N-])[C@@H](CO)O2)c(=O)[nH]c1=O | - | >0.5 µM
CC(=O)O[C@@H]1[C@H](OC(=O)C23CCC(C)(C(=O)O2)C3(C)C)c2c(ccc3c(=O)cc(C)oc23)OC1(C)C | - | >50 µM
Cc1cn([C@H]2C[C@H](N=[N+]=[N-])[C@@H](CO)O2)c(=O)[nH]c1=O | - | 500 µg/mL
C=C[C@]1(C)COC(=O)[C@@]12O[C@]1(c3ccccc3)[C@@H]3C(C)=CC[C@H]([C@H](C)CCC=C(C)C)[C@@H]3[C@@H]1C2=O | - | >25 µg/mL
COc1cc(=O)n(C)c2ccccc12 | cell count | 22.7 µg/mL
COc1cc2c(c(OC)c1OC)-c1ccc(=O)c(N(C)C)cc1[C@@H](N)CC2 | - | >2.7 µM
COC1CCC(OC2CC(C3(C)CCC4(CC(O)C(C)C(C(C)/C=C(\C)C(=O)C(C)CC(C)C(=O)O)O4)O3)OC3(OC(C4OC(O)(CO)C(C)CC4C)CC3C)C2C)OC1C | - | 78.4 µg/mL
CC(=O)O[C@@H]1[C@@H]2[C@@H](OC(C)=O)[C@@]34O[C@@]2(C)COC(=O)c2cccnc2[C@@H](C)[C@H](C)C(=O)O[C@@H]([C@H](OC(C)=O)[C@H](OC(C)=O)[C@@]3(COC(=O)c2ccoc2)[C@@H]1OC(C)=O)C4(C)O | - | >100 µg/mL
COc1cc(-c2oc3cc(O)cc(O)c3c(=O)c2O)ccc1O | - | 28.3 µg/mL
Cc1cn([C@H]2C[C@H](N=[N+]=[N-])[C@@H](CO)O2)c(=O)[nH]c1=O | - | 1875 µM
CC(C)=CCC/C(C)=C/CC/C(C)=C/CC/C=C(\C)CC/C=C(\C)CCC=C(C)C | cell count | 1.93 µg/mL
O=C1OC(C2OC(=O)c3cc(O)c(O)c(O)c3-c3c(O)c(O)c4oc(=O)c5c(c(O)c(O)c6oc(=O)c3c4c65)-c3c(cc(O)c(O)c3O)C(=O)OCC2O)C2OC(=O)c3c(c(O)c(O)c(O)c3C2O)-c2c1cc(O)c(O)c2O | - | >5 µg/mL
COc1ccc([C@@H](CNC(=O)c2ccccc2)OC)cc1 | cell count | 16.4 µg/mL
C[C@@H]1O[C@@H](OC[C@H]2O[C@@H](Oc3c(-c4ccc(O)c(O)c4)oc4cc(O)cc(O)c4c3=O)[C@H](O)[C@@H](O)[C@@H]2O)[C@H](O)[C@H](O)[C@H]1O | cell count | >100 µg/mL
Oc1cc2c(cc1O)C1Cc3ccc(O)c(O)c3CN1CC2 | - | >25 µg/mL
COc1c(O)c(I)c2c(c1OC)-c1c(c(I)c(O)c(OC)c1OC)C[C@H](C)[C@H](C)C2 | - | 22.5 µM
CC[C@@H](O)[C@]1(C)C[C@H](C)[C@@](O)([C@H]2C[C@H](C)[C@H]([C@]3(C)CC[C@H]([C@@H]4CC[C@@]5(O[C@H]([C@@H](C)[C@@H](OC)[C@H](C)C(=O)O)[C@H](C)[C@@H](OC)[C@H]5C)O4)O3)O2)O1 | - | 18.62 µg/mL
COc1c2c(nc3ccccc13)O[C@@H](C(C)(C)O)C2 | cell count | >100 µg/mL
Cc1cc(=O)c2ccc3c(c2o1)[C@@H](OC(=O)C12CCC(C)(C(=O)O1)C2(C)C)[C@@H](OC(=O)CC(C)C)C(C)(C)O3 | - | >32.2 µM
CC(C)[C@H](NC(=O)N(C)Cc1ccccn1)C(=O)N[C@@H](Cc1ccccc1)[C@@H](O)[C@H](O)[C@H](Cc1ccccc1)NC(=O)[C@@H](NC(=O)N(C)Cc1ccccn1)C(C)C | trypan blue | >100 µM
CCNC(=O)[C@@H](NC(=O)Cc1ccccc1)[C@@H]1N[C@@H](C(=O)NCCNC(=O)[C@@H]2N[C@@H]([C@H](NC(=O)Cc3ccccc3)C(=O)NCC)SC2(C)C)C(C)(C)S1 | - | >128 µM
CCCCCCCCCCCCCCCC(=O)Nc1ncnc2c1ncn2[C@@H]1O[C@H](CO)[C@@H](F)[C@H]1O | - | 33 µg/mL
CCCCCCCCCCCCCCCCCCCCCCOC[C@H](CO[C@@]1(C(=O)O)C[C@H](OS(=O)(=O)O)[C@@H](NC(C)=O)[C@H]([C@H](OS(=O)(=O)O)[C@@H](COS(=O)(=O)O)OS(=O)(=O)O)O1)OCCCCCCCCCCCCCCCCCCCCCC | MTT | >200 µM
COc1ccc(C[C@@H]2c3cc(Oc4cc(C[C@@H]5c6cc(O)c(OC)cc6CCN5C)ccc4O)c(OC)cc3CCN2C)cc1 | cell count | 5.17 µg/mL
CC1c2cc(O)c(O)cc2CCN1C | - | >25 µg/mL
C#C[C@@]1(CO)C=C[C@H](n2cc(C)c(=O)[nH]c2=O)O1 | - | >50 µM
CO[C@@H]1C[C@@H](C[C@H]2CC[C@H](C)[C@H]([C@@H](C)C(=O)O)O2)O[C@]2(O[C@](C)([C@H]3CC[C@@](C)([C@@H]4O[C@@H]([C@H]5O[C@@](O)(CO)[C@H](C)C[C@@H]5C)C[C@@H]4C)O3)C[C@H]2C)[C@@H]1C | - | 14.46 µg/mL
Nc1ncn([C@@H]2O[C@H](CO)[C@@H](O)[C@H]2O)c(=O)n1 | MTT | 101.7 µM
Cc1cn([C@H]2C[C@H](N=[N+]=[N-])[C@@H](CO)O2)c(=O)[nH]c1=O | - | 1.9 µM
CC(C)=CCC/C(C)=C/C[N@+]12CCc3cc(O)c(O)cc3[C@H]1Cc1ccc(O)c(O)c1C2 | - | 19.84 µg/mL
COc1cc2c(cc1OCc1ccccc1)C(Cc1ccc(Br)cc1)N(Cc1ccccc1)CC2 | cell count | 7.5 µg/mL

7 of the rows above, restated:

| structure | method | value |
|---|---|---|
| CCCCCCCCCCCCCCCCCCCCCCOC[C@H](CO[C@]1(C(=O)O)C[C@H](OS(=O)(=O)O)[C@@H](NC(C)=O)[C@H]([C@H](OS(=O)(=O)O)[C@@H](COS(=O)(=O)O)OS(=O)(=O)O)O1)OCCCCCCCCCCCCCCCCCCCCCC | MTT | >200 µM |
| CC(=O)OC[C@]12[C@H](OC(C)=O)[C@H](OC(C)=O)[C@@H]3[C@@H](OC(C)=O)[C@@]14O[C@@]3(C)COC(=O)c1cccnc1CCC(C)C(=O)O[C@@H]([C@H](OC(=O)c1ccoc1)[C@@H]2OC(C)=O)C4(C)O | - | >100 µg/mL |
| COc1cc(=O)n(C)c2ccccc12 | cell count | 22.7 µg/mL |
| CCCCCCCCCCCCCCCC(=O)Nc1ncnc2c1ncn2[C@@H]1O[C@H](CO)[C@@H](F)[C@H]1O | - | 33 µg/mL |
| CC(C)C(=O)O[C@@H]1[C@H](OC(=O)C23CCC(C)(C(=O)O2)C3(C)C)c2c(ccc3c(=O)cc(-c4ccccc4)oc23)OC1(C)C | - | >42.5 µM |
| COc1cc2c(c(OC)c1OC)-c1ccc(=O)c(OC)cc1[C@@H](N)CC2 | - | 2.8 µM |
| COc1cc2ccc(=O)oc2c(CC=C(C)C)c1OC | cell count | 21.1 µg/mL |